# Results reported in PubChem BioAssay AID2606 (The Scripps Research Institute Molecular Screening Center, 2010).
# Amino acid sequences for entries named in this document (tags omitted). A change or cut given only in a name is not applied to a line headed by its entry.
# UniProt P9WHR9: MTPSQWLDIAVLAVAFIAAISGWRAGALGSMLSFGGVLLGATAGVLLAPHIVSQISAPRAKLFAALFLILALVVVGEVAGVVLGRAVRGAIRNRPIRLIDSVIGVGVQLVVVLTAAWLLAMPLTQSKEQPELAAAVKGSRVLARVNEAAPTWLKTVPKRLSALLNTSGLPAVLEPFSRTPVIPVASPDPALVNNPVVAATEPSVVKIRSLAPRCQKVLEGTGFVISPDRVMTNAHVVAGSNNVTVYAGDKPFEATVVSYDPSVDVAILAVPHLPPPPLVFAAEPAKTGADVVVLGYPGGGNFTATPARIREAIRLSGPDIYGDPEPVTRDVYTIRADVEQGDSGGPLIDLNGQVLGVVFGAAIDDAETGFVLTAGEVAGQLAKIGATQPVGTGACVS
# The list shows a part of the results, in another mix than the full data. Activity calls are given as the source filed them. No stated cut-off is given here; in the data, active means inhibition above about 38%; inactive means the rest.
# Target: Serine protease Rv3671c (Mycobacterium tuberculosis (strain ATCC 25618 / H37Rv)) (UniProt P9WHR9)
# Experiment: Rv3671c serine protease inhibitors, primary screen, biochemical, fluorescence polarization, M. tuberculosis H37Rv (AID 2606);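 further: extracellular domain of Rv3671c used as enzyme; 0% = enzyme with DMSO and 100% = no enzyme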
# Settings: at 5.96 µM; active compounds read high
row,Structure (SMILES),inhibition
1,CC(=O)NC(SC(=S)N(C)C)C(Cl)(Cl)Cl (stereo unspecified),inactive: -6.31%
2,O=[As](O)(c1ccccc1)c1ccc(O)cc1,inactive: -0.14%
3,C(Cc1nn[nH]n1)Cc1nn[nH]n1,inactive: 7.08%
4,Nc1ccc([As](=O)(O)c2ccc([N+](=O)[O-])cc2)cc1,inactive: -9.67%
5,O=C(OC1CN2CCC1CC2)c1cccc(Cl)c1 (stereo unspecified),inactive: 4.08%
6,O=P(Nc1ccccn1)(c1ccc(Br)cc1)c1ccc(Br)cc1,inactive: 4.1%
7,CN(C)C1(CNC(=O)c2ccc(Cl)c(S(N)(=O)=O)c2)CCCCC1,inactive: 5.08%
8,C[C@H]1OP(=O)(Oc2ccccc2)[C@H](O)[C@H](O)[C@H]1N=[N+]=[N-] (stereo partly specified),inactive: 8.59%
9,O=P(Nc1nc2ccccc2s1)(c1ccccc1)c1ccccc1,inactive: 0.61%
10,CC(C)(C)C(=O)NC(Sc1ccncn1)C(Cl)(Cl)Cl (stereo unspecified),inactive: -2.98%
11,O=[N+]([O-])c1ncn(CCn2ncnc2[N+](=O)[O-])n1,inactive: 4.72%
12,O=[N+]([O-])c1cccc(NC2=NCC(CBr)S2)c1 (stereo unspecified),inactive: 0.1%
13,O=C(Nc1cc([As](=O)(O)O)ccc1O)c1ccccc1,inactive: -2.45%
14,C[N+]1=C2C=CC=CC=C2SC12C([N+](=O)[O-])=CC([N+](=O)[O-])=C[C-]2[N+](=O)[O-] (stereo unspecified),inactive: 18.3%
15,Nc1ccc([As](=O)(O)c2ccc(N)cc2)cc1,inactive: -1.06%
16,CCN(/C(=N/P(=O)(N1CCOCC1)N1CCOCC1)N1CCOCC1)c1ccc(OC)cc1,inactive: 5.32%
17,CN(C)C(=O)OCCc1n(C)cc[n+]1C,inactive: -3.72%
18,CC(C)=N/N=C(\N)N[N+](=O)[O-],inactive: -3.74%
19,CC1CCN(C(=O)Oc2c(Cl)cc(Cl)c3cccnc23)CC1,inactive: -6.12%
20,COc1ccc(C2=NCC(CBr)S2)cc1 (stereo unspecified),inactive: 1.69%
21,O=[N+]([O-])c1cccc2n[nH]nc12,inactive: -2.46%
22,CC(=O)N1C2C3N(C(C)=O)C1C1N(C(C)=O)C(C(N1C(C)=O)N3C(C)=O)N2C(C)=O,inactive: 0.82%
23,CCc1nc2c(n1)c1c(non1O)c1c2no[n+]1[O-],inactive: 7.71%

row,Structure (SMILES),inhibition
1,O=[N+]([O-])c1cc([N+](=O)[O-])c(CCNc2ccccc2)c([N+](=O)[O-])c1,active: 49.6%
2,Cc1ccc(NP(=O)(Oc2ccccc2)Oc2ccccc2)nc1,inactive: -6.93%
3,Nc1cc(N)c2nonc2c1[N+](=O)[O-],inactive: -7.17%
4,CC(C)CC(=O)NC(Sc1ccc(Cl)cc1)C(Cl)(Cl)Cl (stereo unspecified),inactive: 0.62%
5,O=C(NC(Sc1ccncn1)C(Cl)(Cl)Cl)c1ccccc1 (stereo unspecified),inactive: -3.64%
6,Cc1c2non([O-])c-2c(C)[n+](=O)[n+]1[O-],inactive: -1.17%
7,Oc1ccccc1CNc1ccccn1,inactive: 6.2%
8,NC(=O)c1cc([N+](=O)[O-])cc([N+](=O)[O-])c1N,inactive: 3.97%
9,Cc1ccc(N/C(=N/P(=O)(N2CCOCC2)N2CCOCC2)N2CCOCC2)cc1,inactive: 1.4%
10,CN(C(=O)Cc1ccc(Cl)c(Cl)c1)[C@H]1CCCC[C@H]1N1CCCC1,inactive: -0.49%
11,Cc1ccc(OP(=O)(Nc2nccs2)Oc2ccc(C)cc2)cc1,inactive: -1.85%
12,COc1ccccc1OP(=O)(Nc1ccc(C)cn1)Oc1ccccc1OC,inactive: -4.63%
13,CN1CCCC(OC(=O)C(c2ccccc2)c2ccccc2)C1 (stereo unspecified),inactive: -3.57%
14,Clc1ccc(Cl)c(NC2=NCC(CBr)S2)c1 (stereo unspecified),inactive: -3.05%
15,O=[N+]([O-])c1cc([N+](=O)[O-])c(CCN2CCOCC2)c([N+](=O)[O-])c1,inactive: 28.8%
16,CCN(N=Nc1nonc1N)c1nonc1N,inactive: -6.7%
17,CC(=O)Nc1ccc([As](=O)(O)O)cc1,inactive: -4.62%
18,O=C(O)c1ccccc1[As](=O)(O)O,inactive: -9.87%
19,O=P(Nc1nc2ccc(Cl)cc2s1)(c1ccccc1)c1ccccc1,inactive: 1.61%
20,Cc1ccc(NP(=O)(Oc2ccccc2F)Oc2ccccc2F)nc1,inactive: -5.25%
21,CN(C(=O)Cc1ccc(Cl)c(Cl)c1)[C@H]1CCCC[C@@H]1N1CCCC1,inactive: -2.77%
22,Cc1cc(SC(NC(=O)c2ccc(F)cc2)C(Cl)(Cl)Cl)ncn1 (stereo unspecified),inactive: 1.03%
23,CCOP(=O)(Nc1ccccc1)OCC,inactive: 16.5%
